Results published in patent publication US10441588B2, “Methods and compositions for treating bacterial infection” (Curators of the University of Missouri, priority 2012, dated 2019).

Assays:
TSST-1 = TSST-1 production in S. aureus
pyocyanin = experiment: Pyocyanin production in P. aeruginosa

## COc1ccc2c(c1)-c1nc(SCC(F)(F)F)n(C)c(=O)c1C(C)(C)C2 [CCG-211790, 9-methoxy-3,5,5-trimethyl-2-((2,2,2-trifluoroethyl)thio)-5,6-dihydrobenzo[h]quinazolin-4(3H)-one]
TSST-1
  production of TSST-1 in S. aureus: reduction
pyocyanin
  production of pyocyanin in P. aeruginosa: reduction
